Reference: PubChem BioAssay AID624099 (ICCB-Longwood, 2012)

Assay: 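Host factors E2 relies on to silence an HPV18 LCR reporter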 (primary screen)
Cells: human C33A cervical carcinoma cells (HPV-negative) stably expressing BPV1 E2 and an HPV18 LCR luciferase reporter
Reagent: siRNA pool against human genes, 40 nM
Timing: 72 h
Read-out: 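Per-well luciferase luminescence, z-scored on each plate against the plate mean and SD with control wells left out, then averaged across three replicate plates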
Direction: mean z-score and z-score: higher = stronger reporter signal, weaker E2 silencing
Rule for the call: 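Hit if mean z-score reaches 2 and two or more of three replicate z-scores also reach 2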
This is a random part of about 21,000 deposited reagents. 497 of them (2.4%) were called active. 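Higher z means weaker E2 silencing; only reporter increases were scored, and knock-downs that hurt cell survival may mask genuine repressor factors.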

target gene	mean z-score	z-score, replicate A	z-score, replicate B	z-score, replicate C	Outcome
PPBP	-0.38	-0.34	-0.56	-0.25	inactive
ASB18	-0.22	0.3	-0.59	-0.36	inactive
MCOLN2	-1.33	-1.36	-1.43	-1.2	inactive
C11orf16	-0.44	-0.4	-0.55	-0.38	inactive
LOC401025 (retired record)	1.04	0.94	0.87	1.32	inactive
SSC5D	0.56	0.1	0.41	1.17	inactive
TBATA	-0.78	-0.84	-1.13	-0.37	inactive
C9orf85	0.19	0.11	0.6	-0.12	inactive
PRSS58	0.34	0.24	0.58	0.19	inactive
DNAJC4	1.31	1.31	1.42	1.22	inactive
POGZ	0.39	0.57	0.12	0.47	inactive
GTF2A1L	0.98	0.64	1.11	1.19	inactive
MBL2	0.3	0.41	0.59	-0.09	inactive
SHISA4	-2.05	-2.2	-1.66	-2.3	inactive
TIGD1	-0.25	-0.18	-0.06	-0.51	inactive
SPMIP9	-1.06	-1.06	-0.88	-1.25	inactive
KPTN	-0.78	-0.6	-0.85	-0.88	inactive
FSTL1	0.22	-0.03	0.23	0.46	inactive
UGT2B7	-0.73	-0.75	-0.43	-1.02	inactive
WNT2B	-0.87	-0.85	-1.07	-0.71	inactive
DLL4	0.95	1.25	0.7	0.89	inactive
CDH10	0.01	-0.02	0.05	-0.01	inactive
LAMA1	0.33	0.4	0.16	0.42	inactive
ANGEL2	-0.37	-0.26	-0.27	-0.58	inactive
FUZ	1.54	1.9	1.57	1.15	inactive
PRR35	0.21	0.17	0.12	0.35	inactive
OR5H2	-0.63	-0.98	-0.34	-0.58	inactive
EVI5	0.56	0.8	0.31	0.57	inactive
NATD1	-0.61	-0.27	-1.04	-0.52	inactive
ASIP	3.28	2.85	2.66	4.33	active
C9orf153	-0.04	0	-0.05	-0.07	inactive
LOC389659 (retired record)	0.74	0.77	0.61	0.83	inactive
PRSS37	0.05	-0.05	0.23	-0.04	inactive
HCRT	-0.29	-0.47	-0.3	-0.09	inactive
LINC00938	-0.11	-0.32	0.02	-0.03	inactive
SLC15A1	-0.25	-0.1	-0.27	-0.39	inactive
CHST1	-0.86	-0.81	-0.77	-0.99	inactive
DLGAP5	0.76	0.69	0.81	0.79	inactive
CCL7	-0.53	-0.69	-0.47	-0.43	inactive

Copied from the entries so far, 5 entries:
target gene	mean z-score	z-score, replicate A	z-score, replicate B	z-score, replicate C	Outcome
POGZ	0.39	0.57	0.12	0.47	inactive
GTF2A1L	0.98	0.64	1.11	1.19	inactive
MBL2	0.3	0.41	0.59	-0.09	inactive
SHISA4	-2.05	-2.2	-1.66	-2.3	inactive
TIGD1	-0.25	-0.18	-0.06	-0.51	inactive
